Results of unrelated studies side by side (data: NIAID ChemDB).

Shared fields: tests in culture; agent: Candida parapsilosis

MIC50, MIC90 and the like: level of inhibition, or share of isolates inhibited. Inhibition is in % at the dose shown (toxicity tests: loss of growth or viability). Blank or dashed fields: not listed here. Rows are shuffled and stem from different studies.

smiles | strain or isolate | method | dose | endpoint | result
CCCNS(=O)(=O)c1ccc(CN(C)CC(O)(Cn2cncn2)c2ccc(F)cc2F)cc1 | CAPA2 | resazurin |  | MIC | 1.5 µg/mL
Cc1ccc(-n2cc(C(C)(C)O)nn2)cc1C | URM 4608 | broth dilution | 2048 µg/mL | inhibition | 0%
Clc1ccc(C(c2ccccc2)n2nnc3ccccc32)cc1 |  | agar |  | MIC90 | >256 µg/mL
CCC(C)CC(C)CCCCCCCCC(=O)N[C@H]1C[C@@H](O)[C@H](NCCN)NC(=O)[C@@H]2[C@@H](O)CCN2C(=O)[C@H]([C@H](O)CCN)NC(=O)[C@H]([C@H](O)[C@@H](O)c2ccc(O)cc2)NC(=O)[C@@H]2C[C@@H](O)CN2C(=O)[C@H]([C@@H](C)O)NC1=O |  | broth dilution |  | MIC50 | 1 µg/mL
Cc1ccc(N2C(=O)C[C@@H](C)C2=O)cc1 | CCC 124-2000 | broth dilution / turbidity |  | MIC | 62.5 µg/mL
Cc1ccc(-c2c3c(N)c4c(nc3nc3c2c(C)nn3-c2ccccc2)CCC4)cc1 | CCC 124 | broth dilution / absorbance |  | MIC50 | 62.5 µg/mL
O=C(CCl)OC1CCN(CC(O)(Cn2cncn2)c2ccc(F)cc2F)CC1 | 0306392 | broth dilution |  | MIC80 | 9.66 µM
CCC(C)n1ncn(-c2ccc(N3CCN(c4ccc(OC[C@H]5CO[C@](Cn6cncn6)(c6ccc(Cl)cc6Cl)O5)cc4)CC3)cc2)c1=O |  | broth dilution |  | MIC50 | 0.13 µg/mL
O=C(/C=C/c1ccccc1[N+](=O)[O-])OC1CCN(CC(O)(Cn2cncn2)c2ccc(F)cc2F)CC1 | 0306392 | broth dilution |  | MIC80 | 0.487 µM
O/N=C/c1ccc(O)cc1 |  |  |  | MIC100 | >7290 µM
CC1CC(=O)N(CCCCc2ccccc2)C1=O | CCC 124-2000 | broth dilution / turbidity |  | MIC | 125 µg/mL
CN(Cc1ccc(S(=O)(=O)NC(C)(C)C)cc1)CC(O)(Cn1cncn1)c1ccc(F)cc1F | CAPA2 | resazurin |  | MIC | 0.84 µg/mL
C=CCc1ccc(O)c(OC)c1 | 3277 | turbidity |  | MIC90 | 485 µg/mL
C[C@@H](c1ncncc1F)[C@](O)(Cn1cncn1)c1ccc(F)cc1F |  | broth dilution |  | MIC50 | 0.015 µg/mL
CC(C)(O)c1cn(-c2ccccc2)nn1 | ATCC 22019 | broth dilution | 2048 µg/mL | inhibition | 0%
O=C(/C=C/c1ccc(Br)cc1)OC1CCN(CC(O)(Cn2cncn2)c2ccc(F)cc2F)CC1 | 0306392 | broth dilution |  | MIC80 | 0.458 µM
O=C(c1ccccc1)C(c1ccccc1)n1cnc2ccccc21 |  | agar |  | MIC90 | 128 µg/mL
C[C@@H]1C(=O)N(CCCc2ccccc2)C(=O)[C@@H]1C | CCC 124-2000 | broth dilution / turbidity |  | MIC | 62.5 µg/mL
O/N=C\c1ccccc1O |  |  |  | MIC100 | 3600 µM
CC(C)c1ccc(NS(=O)(=O)c2ccc(CN(C)CC(O)(Cn3cncn3)c3ccc(F)cc3F)cc2)cc1 | CAPA1 | resazurin |  | MIC | 0.1 µg/mL
COc1ccc(C(c2ccc(OC)cc2)n2ccnc2)cc1 |  | broth dilution |  | MFC | >256 µg/mL
Nc1ncccc1-c1cc(Cc2ccc(COc3ccccn3)cc2)no1 |  | broth dilution |  | MIC50 | <0.008 µg/mL
CN(Cc1ccc(S(=O)(=O)Nc2ccccc2)cc1)CC(O)(Cn1cncn1)c1ccc(F)cc1F | CAPA2 | resazurin |  | MIC | 0.12 µg/mL
CCCCCCCC(=O)OC1CCN(CC(O)(Cn2cncn2)c2ccc(F)cc2F)CC1 | 0306392 | broth dilution |  | MIC80 | 0.139 µM
Clc1ccc(C(c2ccccc2)N2CCN(CCn3ccnc3)CC2)cc1 |  | broth dilution |  | MFC | >256 µg/mL
C[C@@H]1CC(=O)N(c2ccc(F)cc2F)C1=O | CCC 124-2000 | broth dilution / turbidity |  | MIC | 31.3 µg/mL
CC(C)(O)c1cn(-c2ccc3ccccc3c2)nn1 | URM 4889 | broth dilution | 2048 µg/mL | inhibition | 0%
C[C@H]1[C@H](O)[C@@H](C)/C=C/C=C/C=C/C=C/C=C/C=C/C=C/[C@H](O[C@@H]2O[C@H](C)[C@@H](O)[C@H](N)[C@@H]2O)C[C@@H]2O[C@](O)(C[C@@H](O)C[C@@H](O)CC[C@H](O)[C@@H](O)C[C@@H](O)CC(=O)O[C@H]1C)C[C@H](O)[C@H]2C(=O)O | CCC 124-2000 | broth dilution / turbidity |  | MIC | 0.98 µg/mL
O=[N+]([O-])c1cccc(/C=N\O)c1 |  |  |  | MIC100 | 6020 µM
Clc1ccc(C(c2ccccc2)n2cncn2)cc1 |  | agar |  | MIC90 | 256 µg/mL
O=C(/C=C/c1cccc(Br)c1)OC1CCN(CC(O)(Cn2cncn2)c2ccc(F)cc2F)CC1 | 0306392 | broth dilution |  | MIC80 | 0.458 µM
Cc1ccc(-c2c3c(N)c4c(nc3nc3c2c(C)nn3-c2ccccc2)CCCCC4)cc1 | CCC 124 | broth dilution / absorbance |  | MIC50 | 62.5 µg/mL
O=C(c1ccccc1)C(c1ccccc1)n1cncn1 |  | broth dilution |  | MFC | >256 µg/mL
O=C(/C=C/c1cccc([N+](=O)[O-])c1)OC1CCN(CC(O)(Cn2cncn2)c2ccc(F)cc2F)CC1 | 0306392 | broth dilution |  | MIC80 | 0.122 µM
Cc1ccc(-c2c3c(N)c4c(nc3nc3c2c(C)nn3-c2ccccc2)CCCC4)cc1 | CCC 124 | broth dilution / absorbance |  | MIC100 | 31.2 µg/mL
CC1C(=O)N(CCCCc2ccccc2)C(=O)C1C | CCC 124-2000 | broth dilution / turbidity |  | MIC | 125 µg/mL
COc1ccc(C(c2ccc(OC)cc2)n2cncn2)cc1 |  | broth dilution |  | MFC | >256 µg/mL
O=C(CC1=Nc2ccccc2C1)OC1CCN(CC(O)(Cn2cncn2)c2ccc(F)cc2F)CC1 | 0306392 | broth dilution |  | MIC80 | 0.032 µM

The last 3 rows once more:

smiles | strain or isolate | method | dose | endpoint | result
CC1C(=O)N(CCCCc2ccccc2)C(=O)C1C | CCC 124-2000 | broth dilution / turbidity |  | MIC | 125 µg/mL
COc1ccc(C(c2ccc(OC)cc2)n2cncn2)cc1 |  | broth dilution |  | MFC | >256 µg/mL
O=C(CC1=Nc2ccccc2C1)OC1CCN(CC(O)(Cn2cncn2)c2ccc(F)cc2F)CC1 | 0306392 | broth dilution |  | MIC80 | 0.032 µM